Several values for one entry are separate records, joined by “and”; a condition that tells them apart may be missing. Equal entries are not always repeated.
tested on: P. falciparum NF54; experiment: In vitro microplate assay against P. falciparum NF54 (3H-hypoxanthine incorporation, erythrocytic stages); type: cell-based, Plasmodium falciparum; conditions: selectivity index, L-6 cells vs P.f. NF54
Procedure: All newly synthesized compounds were tested for their antiplasmodial activity against the chloroquine-sensitive strain Plasmodium falciparum NF54. Cytotoxicity was determined using rat skeletal myofibroblasts (L-6 cells). As standards chloroquine and podophyllotoxin were used.
In vitro activity against erythrocytic stages of P. falciparum was determined with a ^3H-hypoxanthine incorporation assay, using the chloroquine sensitive NF54 strain [44]. Chloroquine (Sigma C6628) was used as standard. Test compounds were dissolved in DMSO at 10 mg/mL and added to parasite cultures incubated in RPMI 1640 medium without hypoxanthine, supplemented with HEPES (5.94 g/L, NaHCO3 (2.1 g/L), neomycin (100 U/mL), Albumax (5 g/L) and washed human red blood cells A^+ at 2.5% hematocrit (0.3% parasitemia). Serial drug dilutions of 11 3-fold dilution steps (covering a range from 100–0.002 µg/mL) were prepared. The 96-well plates were incubated at a humidified atmosphere at 37 °C; 4% CO2, 3% O2, 93% N2. After 48 h, 0.05 mL of ^3H-hypoxanthine (=0.5 µCi) was added to each well. The plates were incubated for another 24 h under the same conditions. Then, the plates were harvested with a Betaplate cell harvester (Wallac, Zurich, Switzerland). The red blood cells were transferred onto glass fiber filter and washed with distilled water. The dried filters were inserted into a plastic foil with 10 mL of scintillation fluid and counted in a Betaplate liquid scintillation counter. IC50 values were determined from sigmoidal inhibition curves by linear regression using Microsoft Excel. Chloroquine was used as control.

| Structure (SMILES) | S.I. = IC50 (Cyt.)/IC50 (P.f. NF54) |
| --- | --- |
| CC(C)(C)OC(=O)N1CCN(c2ccccc2NC(=O)c2cccc(C(F)(F)F)c2Oc2ccccc2)CC1 [Compound 6, tert-Butyl-4-{2-[2-phenoxy-3-(trifluoromethyl)benzamido]phenyl}piperazine-1-carboxylate] | 127.1 |
| CC(C)(C)OC(=O)N1CCN(c2ccccc2NC(=O)c2cccc(C(F)(F)F)c2)CC1 [Compound 7, tert-Butyl-4-{2-[3-(trifluoromethyl)benzamido]phenyl}piperazine-1-carboxylate] | 30.22 |
| O=C(Nc1ccccc1)c1cccc(C(F)(F)F)c1Oc1ccc(F)cc1 [Compound 12, 2-(4-Fluorophenoxy)-N-phenyl-3-(trifluoromethyl)benzamide] | 21.71 |
| CC(C)(C)OC(=O)Nc1ccccc1NC(=O)c1cccc(C(F)(F)F)c1Oc1ccc(F)cc1 [Compound 13, tert-Butyl-N-{2-[2-(4-fluorophenoxy)-3-(trifluoromethyl)benzamido]phenyl}carbamate] | 9.043 |
| CC(=O)N1CCN(c2ccccc2NC(=O)c2cccc(C(F)(F)F)c2Oc2ccc(F)cc2)CC1 [Compound 17, N-[2-(4-Acetylpiperazin-1-yl)phenyl]-2-(4-fluorophenoxy)-3-(trifluoromethyl)benzamide] | 10.72 |
| O=CN1CCN(c2ccccc2NC(=O)c2cccc(C(F)(F)F)c2Oc2ccc(F)cc2)CC1 [Compound 18, 2-(4-Fluorophenoxy)-N-[2-(4-formylpiperazin-1-yl)phenyl]-3-(trifluoromethyl)benzamide] | 4.829 |
| CC(C)(C)C(=O)N1CCN(c2ccccc2NC(=O)c2cccc(C(F)(F)F)c2Oc2ccc(F)cc2)CC1 [Compound 19, N-{2-[4-(2,2-Dimethylpropanoyl)piperazin-1-yl]phenyl}-2-(4-fluorophenoxy)-3-(trifluoromethyl)benzamide] | 299.7 |
| CC(C)(C)N1CCN(c2ccccc2NC(=O)c2cccc(C(F)(F)F)c2Oc2ccc(F)cc2)CC1 [Compound 20, 2-(4-Fluorophenoxy)-N-[2-(4-tert-butylpiperazin-1-yl)phenyl]-3-(trifluoromethyl)benzamide] | 12.01 |
| CN(C)C(=O)N1CCN(c2ccccc2NC(=O)c2cccc(C(F)(F)F)c2Oc2ccc(F)cc2)CC1 [Compound 22, N-{2-[4-(N,N-Dimethylcarbamoyl)piperazin-1-yl]phenyl}-2-(4-fluorophenoxy)-3-(trifluoromethyl)benzamide] | 8.770 |
| CC(C)(C)OC(=O)N1CCN(c2cccc(NC(=O)c3cccc(C(F)(F)F)c3Oc3ccc(F)cc3)c2)CC1 [Compound 36, tert-Butyl-4-{3-[2-(4-fluorophenoxy)-3-(trifluoromethyl)benzamido]phenyl}piperazine-1-carboxylate] | 37.58 |
| CC(C)(C)OC(=O)N1CCN(c2ccc(NC(=O)c3cccc(C(F)(F)F)c3Oc3ccc(F)cc3)cc2)CC1 [Compound 37, tert-Butyl-4-{4-[2-(4-fluorophenoxy)-3-(trifluoromethyl)benzamido]phenyl}piperazine-1-carboxylate] | 461.0 |
| CC(C)(C)C(=O)N1CCN(c2cccc(NC(=O)c3cccc(C(F)(F)F)c3Oc3ccc(F)cc3)c2)CC1 [Compound 38, N-{3-[4-(2,2-Dimethylpropanoyl)piperazin-1-yl]phenyl}-2-(4-fluorophenoxy)-3-(trifluoromethyl)benzamide] | 24.61 |
| CC(C)(C)C(=O)N1CCN(c2ccc(NC(=O)c3cccc(C(F)(F)F)c3Oc3ccc(F)cc3)cc2)CC1 [Compound 39, N-{4-[4-(2,2-Dimethylpropanoyl)piperazin-1-yl]phenyl}-2-(4-fluorophenoxy)-3-(trifluoromethyl)benzamide] | 171.8 and 171.9 |
| Nc1cccc(NC(=O)c2cccc(C(F)(F)F)c2Oc2ccc(F)cc2)c1 [Compound 50, N-(3-Aminophenyl)-2-(4-fluorophenoxy)-3-(trifluoromethyl)benzamide] | 2.026 |
| Nc1ccc(NC(=O)c2cccc(C(F)(F)F)c2Oc2ccc(F)cc2)cc1 [Compound 51, N-(4-Aminophenyl)-2-(4-fluorophenoxy)-3-(trifluoromethyl)benzamide] | 2.328 |
| CC(C)(C)OC(=O)N1CCN(c2ccc(NC(=O)c3cccc(C(F)(F)F)c3Oc3ccccc3)cc2)CC1 [Compound 54, tert-Butyl-4-{4-[2-phenoxy-3-(trifluoromethyl)benzamido]phenyl}piperazine-1-carboxylate] | 151.4 |
| CC(C)(C)C(=O)N1CCN(c2ccc(NC(=O)c3cccc(C(F)(F)F)c3Oc3ccccc3)cc2)CC1 [Compound 55, N-{4-[4-(2,2-Dimethylpropanoyl)piperazin-1-yl]phenyl}-2-phenoxy-3-(trifluoromethyl)benzamide] | 19.27 |
| CC(C)(C)C(=O)N1CCN(c2ccccc2NC(=O)c2cccc(C(F)(F)F)c2Oc2ccccc2)CC1 [Compound 56, N-{2-[4-(2,2-Dimethylpropanoyl)piperazin-1-yl]phenyl}-2-phenoxy-3-(trifluoromethyl)benzamide] | 288.6 |

— publication PMC8625693, “Synthesis and Structure-Activity Relationships of New 2-Phenoxybenzamides with Antiplasmodial Activity” (Pharmaceuticals, 2021)
